Measured values from several laboratories, pooled; numbers as filed in NIAID ChemDB.

All rows: tests in culture; organism: HIV-1; endpoint: fold resistance

Two numbers with a dash give a range or band. Fold resistance has wild type as its base. Neighbouring rows are from separate reports. An empty or dashed field is not shown.

compound,strain or isolate,cells,read by,mutations,result
CCc1c(C)[nH]c(=O)c(C(C)C)c1Oc1cc(C)cc(C)c1,,MT-4,cytopathic effect / MTT,RT-L100I,1
Cc1ccc(NC(=O)CSc2nnc(C)n2-c2cc(C)c(C)c3ccccc23)c(Cl)c1,NL4-3,HeLa + HeLa-JC53,luciferase,RT-Y188L,160
CCC(=O)c1ccc(F)c([C@@H]2C[C@@H]2NC(=O)Nc2ccc(C#N)cn2)c1O,LAI,TZM-bl,β-galactosidase / luminescence,NNRTI-resistant (RT V106I),1.2
Cc1ccc(C2CC2)c(-c2cc(F)c3c(c2C)CCCO3)c1[C@H](OC1CC1)C(=O)O,NL4-3,MT-4,luminescence,INSTI-resistant (IN-G140S),1
Cc1ccc2cccc(-n3c(C)nnc3SCC(=O)Nc3ccc(S(N)(=O)=O)cc3Cl)c2n1,NL4-3,HeLa + HeLa-JC53,luciferase,RT-Y188L,390
Cc1occc1C(=S)Nc1ccc(Cl)c(C(=O)OC(C)C)c1,4XAZT/Y181C (RT D67N K70R Y181C T215Y K219Q),CEM + CEM-SS,cytopathic effect / XTT,RT-D67N K70R Y181C T215Y K219Q,13.3
Cc1cn([C@H]2C=C[C@@H](CO)O2)c(=O)[nH]c1=O,XM-T69SSS,MT-4,p24,RT-T69SSS L210W T215Y,9
O=C(O[C@@H]1[C@H](OC(=O)c2ccccc2)[C@@H](CO)O[C@H]1n1cnc2c(N(C(=O)c3ccccc3)C(=O)c3ccccc3)ncnc21)c1ccccc1,NL4-3,HeLaP4,β-galactosidase,E138K,0.89
N#Cc1cc2[nH]c3ccccc3c2n(-c2ccc([N+](=O)[O-])cc2)c1=O,D,MT-4,cytopathic effect / MTT,RT-L100I K103N,3
CN(C)C1=C(C#N)/C(=C2/C(C#N)=C(N(C)C)N(c3ccc([N+](=O)[O-])cc3)c3c2n(C)c2ccccc32)c2c(c3ccccc3n2C)N1c1ccc([N+](=O)[O-])cc1,N119 nevirapine-resistant (RT Y181C),CEM + CEM-SS,cytopathic effect / XTT,RT-Y181C,1.23–12
C=CCO/N=C/c1cc(NC(=S)c2ccoc2C)ccc1Cl,NL4-3,CEM + CEM-SS,cytopathic effect / XTT,RT-V106A,114
COc1ccnc2[nH]cc(C(=O)C(=O)N3CCN(C(=O)c4ccccc4)C[C@H]3C)c12,LAI(GP41-I595F) Recombinant,MT-2,RT activity,GP41-I595F,8
CCc1c(C)[nH]c(=O)c(OC)c1Oc1cc(C)cc(C)c1,,MT-4,cytopathic effect / MTT,RT-Y188L,318
CCN1c2ncc(CCOc3ccc(C(=O)Nc4ccc(CC(=O)O)cc4)cc3C)cc2C(=O)Nc2c(C)ccnc21,,C8166,p24,RT-K103N Y181C,>1
Cc1occc1C(=S)Nc1ccc(Cl)c(C(=O)OCC2CC2)c1,NL4-3,CEM + CEM-SS,cytopathic effect / XTT,RT-V108I,1.6
CCOCn1c(Sc2ccccc2)c(CC)c(=O)[nH]c1=S,IIIB,CEM,syncytia,RT-Y188H,>2730
CCN1c2ncc(CCOc3ccc(C(=O)Nc4ccc[n+]([O-])c4)cc3C)cc2C(=O)Nc2c(C)ccnc21,,C8166,p24,RT-K103N Y181C,1
CCN1C(=O)c2c(O)c(=O)c(C(=O)NCc3ccc(F)cc3F)cn2[C@H]2CCOC[C@H]21,,MT-2,luminescence,E138K/Q148K,3.5
O=C1Nc2ccc(Cl)cc2[C@@](/C=C/C2CC2)(C(F)(F)F)N1,,,,RT-K103N Y181C,60
CC(C)=CCOc1cc(NC(=S)c2ccsc2C)ccc1Cl,UC10/costatolide-resistant (RT K103N),CEM + CEM-SS,cytopathic effect / XTT,RT-K103N,125
CC(C)=CCOc1cc(NC(=S)c2ccoc2C)ccc1Cl,NL4-3,CEM + CEM-SS,p24,RT-Y181C,13
CCN1c2ncc(CCOc3ccc(C(=O)Nc4ccc(C(=O)O)cc4)cc3C)cc2C(=O)N(C)c2cccnc21,,C8166,p24,RT-K103N Y181C,>1
Cc1cc(C#N)cc(C)c1Oc1nc(Nc2ccc(C#N)cc2)ncc1SCC(N)=O,,MT-4,MTT,RES056,64.4
Cc1cc(C)cc(Sc2c(C(C)C)c(=O)[nH]c(=S)n2COCCO)c1,IIIB,CEM,syncytia,RT-Y181I,1670
Cc1ccc(-n2c(C)nnc2SCC(=O)Nc2ccccc2Br)c2ccccc12,NL4-3,HeLa + HeLa-JC53,luciferase,RT-K103N Y181C,23
CCc1c(Cc2cc(C)cc(C)c2)n(COCCO)c(=O)[nH]c1=O,IIIB,CEM,syncytia,RT-Y181I,89.3
CC(C)=CCOc1cc(NC(=S)c2ccoc2C)ccc1Cl,UC10/costatolide-resistant (RT K103N),CEM + CEM-SS,cytopathic effect / XTT,RT-K103N,90
CCN1c2ncc(CCOc3ccc(Nc4nc(C(=O)O)cs4)cc3C)cc2C(=O)N(C)c2cccnc21,,C8166,p24,RT-K103N Y181C,>1
N#Cc1cc(Cl)cc(Oc2c(Br)ccc(CC(=O)Nc3ccc(S(N)(=O)=O)cc3Cl)c2F)c1,,MT-4,,Y188L,26
Cc1cc(C#N)cc(C)c1Oc1nc(Nc2ccc(C#N)cc2)ncc1SCC(=O)NC1CC1,,MT-4,MTT,RES056,48.6
Nc1nc(NC2CC2)c2ncn([C@H]3C=C[C@@H](CO)C3)c2n1,XM-ABC-resistant,MT-4,p24,RT-K65R L74V M184V Y115F,53
Cn1c2ccccc2c2c1cc(C#N)c(=O)n2-c1ccc([N+](=O)[O-])cc1,F,MT-4,cytopathic effect / MTT,RT-Y188L,2
Cc1ccc(NC(=O)CSc2nnc(C)n2-c2c(C)cc(C)c3ccccc23)c(Cl)c1,NL4-3,HeLa + HeLa-JC53,luciferase,RT-Y188L,90
COCCNC(=O)CSc1cnc(Nc2ccc(C#N)cc2)nc1Oc1c(C)cc(C#N)cc1C,,MT-4,MTT,L100I,4.7
CC=CCOc1cc(NC(=S)c2ccoc2C)ccc1OC,NL4-3,CEM + CEM-SS,cytopathic effect / XTT,RT-V106A,20
CCc1c(C)[nH]c(=O)c(C(F)(F)F)c1Oc1cc(C)cc(C)c1,,MT-4,cytopathic effect / MTT,RT-Y181C,16
Cc1cc(C#N)cc(C)c1Oc1nc(Nc2ccc(C#N)cc2)ncc1SCC(=O)NCCN1CCN(C(=O)OC(C)(C)C)CC1,,MT-4,MTT,F227L V106A,27.4
Cc1cc2cn[nH]c2cc1NC(=O)COc1ccc(Cl)cc1C(=O)c1cccc(C#N)c1,HXB2,HeLa + HELA CD4+,β-galactosidase,RT-Y188C,~1
CCCc1cc(=O)oc2c3c(c4c(c12)OC(C)(C)CC4)O[C@H](C)[C@@H](C)C3=O,,,cytopathic effect / XTT,RT-K103N,21
Cc1cc(S(N)(=O)=O)ccc1NC(=O)COc1ccc(Cl)cc1C(=O)c1cc(Cl)cc(C#N)c1,HXB2,HeLa + HELA CD4+,β-galactosidase,RT-K103N,~1
C#CCNC(=O)CSc1cnc(Nc2ccc(C#N)cc2)nc1Oc1c(C)cc(C#N)cc1C,,MT-4,MTT,E138K,2.9
CCN1c2ncc(CCOc3ccc(C(=O)N=c4ccccn4O)cc3C)cc2C(=O)Nc2c(C)ccnc21,,C8166,p24,RT-K103N Y181C,1
CCc1c(C)[nH]c(=O)c(SC)c1Oc1cc(C)cc(C)c1,,MT-4,cytopathic effect / MTT,RT-K103N,16
CCCc1c(OC2CCCCC2)c2cc(Cl)ccc2[nH]c1=O,NNRTI-resistant (RT K103N Y181C),HeLa + HeLa-MAGI,β-galactosidase,RT-K103N Y181C,>62.5
C[C@@H]1CCO[C@H]2Cn3cc(C(=O)NCc4ccc(F)cc4F)c(=O)c(O)c3C(=O)N12,,TZM-bl,luciferase / luminescence,V75I,0.5
COc1cc2c(cc1Cc1cccc(Cl)c1F)c(=O)c(C(=O)O)cn2[C@H](CO)C(C)C,NL4-3,MT-4,luminescence,T174I,1
CCc1c(C)[nH]c(=O)c(Cl)c1Oc1cc(C)cc(C)c1,,MT-4,cytopathic effect / MTT,RT-L100I,5
C=CCNC(=O)CSc1cnc(Nc2ccc(C#N)cc2)nc1Oc1c(C)cc(C#N)cc1C,,MT-4,MTT,K103N,0.8
CCc1ccc(-n2c(C)nnc2SCC(=O)Nc2ccc(C)cc2Cl)cc1,NL4-3,HeLa + HeLa-JC53,luciferase,RT-K103N Y181C,300
Cc1cc(C#N)cc(C)c1Oc1nc(Nc2ccc(C#N)cc2)ncc1SCC(=O)NCc1ccc(O)cc1,,MT-4,MTT,RES056,49.3
CCOCn1c(Sc2cc(C)cc(C)c2)c(CC)c(=O)[nH]c1=O,IIIB,CEM,syncytia,RT-E138K,7.5
NS(=O)(=O)c1ccc(NC(=O)CSc2nnc(C(F)(F)F)n2-c2cccc3cccnc23)c(Cl)c1,NL4-3,HeLa + HeLa-JC53,luciferase,RT-Y188L,90
C[C@H]1CO[C@@H]2Cn3cc(C(=O)NCc4ccc(F)cc4F)c(=O)c(O)c3C(=O)N12,NL4-3,CBMC,RT activity,Y143R,1.7
Cc1ccc(C2CC2)c(-c2ccc3c(c2C)CCCO3)c1[C@H](OC(C)(C)C)C(=O)O,NL4-3,MT-4,luminescence,INSTI-resistant (IN-G140S),1
Cc1cc(C#N)cc(C)c1Oc1nc(Nc2ccc(C#N)cc2)ncc1SCC(=O)NC1CCN(C(=O)OC(C)(C)C)CC1,,MT-4,MTT,L100I,7.1
CCc1c(Sc2cc(C)cc(C)c2)n(COCc2ccccc2)c(=S)[nH]c1=O,IIIB,CEM,syncytia,Nevirapine resistant (RT Y181C),6.67
Cc1cc(C)cc(C(=O)c2cc(Cl)ccc2OCC(=O)Nc2ccc(S(N)(=O)=O)cc2C)c1,HXB2,HeLa + HELA CD4+,β-galactosidase,RT-V108I Y181C,~1
O=c1[nH]cnc2c1ncn2[C@@H]1O[C@H](CO)C[C@@H]1F,IIIB BCH-13520-resistant (RT V75I),MT-2,RT activity,RT-V75I,7.75
Cc1occc1C(=S)Nc1ccc(Cl)c(/C=N/OC(C)(C)C)c1,NL4-3,CEM + CEM-SS,cytopathic effect / XTT,RT-A98G,8.75
Cc1cc(C#N)cc(C(=O)c2cc(Cl)ccc2OCC(=O)Nc2ccc(S(N)(=O)=O)cc2C)c1,HXB2,HeLa + HELA CD4+,β-galactosidase,RT-P236L,~1
Cc1ccc(-n2c(C)nnc2SCC(=O)Nc2ccc(Cl)cc2)cc1,NL4-3,HeLa + HeLa-JC53,luciferase,RT-K103N Y181C,>25
O=C1Nc2ccc(Cl)cc2[C@@](C#CC2CC2)(C(F)(F)F)N1,,,,RT-K103N Y181C,13.2
Cc1nnc(SCC(=O)Nc2ccccc2Br)n1-c1ccc(Cl)c2ccccc12,NL4-3,HeLa + HeLa-JC53,luciferase,RT-K103N Y181C,162
CCN1C(=O)c2c(O)c(=O)c(C(=O)NCc3c(F)cc(F)cc3F)cn2[C@H]2COC[C@H]21,,MT-2,luminescence,E92Q/N155H,2.3
Cc1cc(C#N)cc(C)c1Oc1nc(Nc2ccc(C#N)cc2)ncc1SCC(=O)NCC1CCCO1,,MT-4,MTT,K103N,0.6
CC(C)[C@H](NC(=O)OCc1ccccn1)C(=O)N[C@@H](Cc1ccccc1)[C@@H](O)C[C@H](Cc1ccccc1)NC(=O)OCc1cccnc1,NL4-3,MT-4,p24,PR-L10R M46I L63P 184V,1.875
Cc1c(OCC2CCC2)c2cc(F)ccc2[nH]c1=O,NNRTI-resistant (RT K103N G190A),HeLa + HeLa-MAGI,β-galactosidase,RT-K103N G190A,>3.28
CNc1ncnc2c1ncn2[C@@H]1O[C@H](CO)C[C@@H]1F,IIIB BCH-13520-resistant (RT K65R),MT-2,RT activity,RT-K65R,15
Cc1cc2c(C)ccc(-n3c(C)nnc3SCC(=O)Nc3ccccc3Br)c2cc1C,NL4-3,HeLa + HeLa-JC53,luciferase,RT-Y188L,110
CCN1C(=O)c2c(O)c(=O)c(C(=O)NCc3ccc(F)c(Cl)c3F)cn2[C@H]2CCOC[C@H]21,,MT-2,luminescence,E138K/Q148K,1.5

The last 8 rows once more:

Cc1nnc(SCC(=O)Nc2ccccc2Br)n1-c1ccc(Cl)c2ccccc12 ; strain or isolate: NL4-3 ; cells: HeLa + HeLa-JC53 ; read by: luciferase ; mutations: RT-K103N Y181C ; result: 162
CCN1C(=O)c2c(O)c(=O)c(C(=O)NCc3c(F)cc(F)cc3F)cn2[C@H]2COC[C@H]21 ; cells: MT-2 ; read by: luminescence ; mutations: E92Q/N155H ; result: 2.3
Cc1cc(C#N)cc(C)c1Oc1nc(Nc2ccc(C#N)cc2)ncc1SCC(=O)NCC1CCCO1 ; cells: MT-4 ; read by: MTT ; mutations: K103N ; result: 0.6
CC(C)[C@H](NC(=O)OCc1ccccn1)C(=O)N[C@@H](Cc1ccccc1)[C@@H](O)C[C@H](Cc1ccccc1)NC(=O)OCc1cccnc1 ; strain or isolate: NL4-3 ; cells: MT-4 ; read by: p24 ; mutations: PR-L10R M46I L63P 184V ; result: 1.875
Cc1c(OCC2CCC2)c2cc(F)ccc2[nH]c1=O ; strain or isolate: NNRTI-resistant (RT K103N G190A) ; cells: HeLa + HeLa-MAGI ; read by: β-galactosidase ; mutations: RT-K103N G190A ; result: >3.28
CNc1ncnc2c1ncn2[C@@H]1O[C@H](CO)C[C@@H]1F ; strain or isolate: IIIB BCH-13520-resistant (RT K65R) ; cells: MT-2 ; read by: RT activity ; mutations: RT-K65R ; result: 15
Cc1cc2c(C)ccc(-n3c(C)nnc3SCC(=O)Nc3ccccc3Br)c2cc1C ; strain or isolate: NL4-3 ; cells: HeLa + HeLa-JC53 ; read by: luciferase ; mutations: RT-Y188L ; result: 110
CCN1C(=O)c2c(O)c(=O)c(C(=O)NCc3ccc(F)c(Cl)c3F)cn2[C@H]2CCOC[C@H]21 ; cells: MT-2 ; read by: luminescence ; mutations: E138K/Q148K ; result: 1.5